A mixed list of measured activities; the numbers were collected in NIAID ChemDB.

Shared fields: cytotoxicity tests; cell line: HepG2; endpoint: CC50

CCn is the concentration with n% toxicity to the cells.

compound,read by,value
CNC(=O)c1ccc(-n2c(CC(C)C)nc3c(c2=O)C[C@@H](C)N(C(=O)c2ccc(Br)c(C(F)(F)F)c2)C3)cc1,luminescence,>50 µM
COc1ccc(F)cc1CNCCCNc1ccnc2cc(Cc3ccccc3)ccc12,fluorescence,7.99 µM
CCOC(OCC)C(=O)NCCc1ccc(OC)c(OC)c1,,>20 µM
CNC(=O)c1cc(-n2c(NC(C)C)nc3c(c2=O)C[C@@H](C)N(C(=O)c2ccc(Br)c(C(F)(F)F)c2)C3)on1,luminescence,>50 µM
CCC(CC)NC(=O)C(=O)c1c(C)c(C(=O)Nc2ccc(F)c(C)c2)c(C)n1C,MTT,5–30 µM
COc1cccc(CNCCCNc2ccnc3cc(Cc4cccc(C(F)(F)F)c4)ccc23)c1O,fluorescence,1.72 µM
CCOC(=O)CCCCCOc1cccc(CN(C(=O)c2ccc(-c3cccc(S(C)(=O)=O)c3)cc2)C(C)C)c1,,>20 µM
CNC(=O)CCCCn1c(NC(C)C)nc2c(c1=O)C[C@@H](C)N(C(=O)c1ccc(Cl)c(C(F)(F)F)c1)C2,luminescence,>50 µM
CCCN(Cc1ccccc1OCC(=O)O)C(=O)c1ccc(-c2ccc3c(c2)OCO3)cc1,,>20 µM
COc1cccc(CNCCCNc2ccnc3cc(Oc4ccc(C(C)(C)C)cc4)ccc23)c1O,fluorescence,1.5 µM
CNC(=O)C1CCC(n2c(NC(C)C)nc3c(c2=O)C[C@@H](C)N(C(=O)c2cc(F)c(Cl)c(C(F)(F)F)c2)C3)CC1,luminescence,>50 µM
COc1ccc(Oc2ccc3c(NCCCNCc4cccc(OC)c4O)ccnc3c2)cc1,fluorescence,5.5 µM
CNC(=O)[C@H]1CC[C@@H](n2c(NC(C)C)nc3c(c2=O)C[C@@H](C)N(C(=O)c2ccc(Br)c(C(F)(F)F)c2)C3)C1,luminescence,29.8 µM
Cc1c(C(=O)Nc2ccc(N3CCOCC3)nc2)c(C)n(C)c1C(=O)C(=O)NC(C)(C)C,MTT,>30 µM
COc1ccc(F)cc1CNCCCNc1ccnc2cc(Oc3ccc(Cl)cc3)ccc12,fluorescence,4.5 µM
Cc1cc(NC(=O)c2c(C)c(C(=O)C(=O)N[C@@H]3CCN[C@H](C(=O)O)C3)n(C)c2C)ccc1F,MTT,>30 µM
COc1cc(C)ccc1OCCOc1ccccc1F,,>20 µM
CNC(=O)c1c(Cl)c(-n2c(NC(C)C)nc3c(c2=O)C[C@@H](C)N(C(=O)c2ccc(Cl)c(C(F)(F)F)c2)C3)nn1C,luminescence,>50 µM
Cc1c(C(=O)Nc2cccc(B(O)O)c2)c(C)n(C)c1C(=O)C(=O)NC(C)(C)C,MTT,>30 µM
CCOC(=O)CCCCCOc1cccc(CN(C(=O)c2ccc(-c3cccc(Cl)c3)cc2)C(C)C)c1,,<13.5 µM
Cc1cc(NC(=O)c2c(C)c(C(=O)C(=O)N[C@@H]3CC[C@@H](O)CC3(C)C)n(C)c2C)ccc1F,MTT,>30 µM
CCCN(Cc1ccccc1OCC(=O)OCC)C(=O)c1ccc(-c2ccc3c(c2)OCO3)cc1,,>20 µM
Cc1c(C(=O)Nc2ccc(F)c(C3CC3)c2)c(C)n(C)c1C(=O)C(=O)NC(C)(C)C,MTT,>30 µM
O=C(NCc1ccccc1)c1ccc(-c2ccc3c(c2)OCO3)cc1,,>20 µM

2 of the rows above, restated:

CCCN(Cc1ccccc1OCC(=O)O)C(=O)c1ccc(-c2ccc3c(c2)OCO3)cc1 ; value: >20 µM
COc1ccc(Oc2ccc3c(NCCCNCc4cccc(OC)c4O)ccnc3c2)cc1 ; read by: fluorescence ; value: 5.5 µM

Blank or dashed fields: not listed here. a–b is a range or a potency band. Rows are shuffled and stem from different studies.